PubChem BioAssay AID504761, Drosophila RNAi Screening Center | 2011

Aim: 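Insect host genes that dengue virus relies on to spread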 (primary screen)
Cells: D.Mel-2 cells from Drosophila
Reagent: long dsRNA against Drosophila genes
Challenge: infection with dengue virus type 2; dose and infection time not stated
Detection: 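Cells stained for dengue envelope protein and imaged; percent of infected cells per well on duplicate plates, ranked by infection, with stained nuclei counted for cell number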
Reading the numbers: infection score: higher = more virus-infected cells; cell count: higher = more cells in the well
Rule for the call: 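Very low infection ranking in both replicate wells (chance probability at most 0.065), then a retest showing infection dropped 1.5-fold or more at p below 0.05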
Calls: active = confirmed: knock-down lowers infection; inactive = not picked or not confirmed
The screen tested about 22,000 reagents; shown is a random part of those that have a named target and a result. In the full data, 116 (0.52%) are marked active. 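Calls depend on retest data that are not deposited; infection was ranked per plate without normalising between plates; the unit of the infection score is not given.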 The raw values are shown without normalisation. Not given: the amount of reagent, the time to read-out.

| predicted target | PubChem SID | infection score, replicate 1 | infection score, replicate 2 | cell count, replicate 1 | cell count, replicate 2 | Call |
| --- | --- | --- | --- | --- | --- | --- |
| CG14645 | SID104192023 | 6.86 | 23.9 | 6455 | 4528 | inactive |
| Abp1 | SID104189485 | 0.44 | 1.13 | 6837 | 6367 | inactive |
| Eno | SID104180542 | 8.44 | 5.7 | 6543 | 6580 | inactive |
| Csk | SID104192653 | 2.08 | 0.64 | 5905 | 6061 | inactive |
| Csk | SID104202629 | 2.1 | 15.4 | 5910 | 6545 | inactive |
| Csk | SID104205241 | 2.29 | 1.69 | 6214 | 6381 | inactive |
| CG13390 | SID104182053 | 3.54 | 4.06 | 5679 | 6011 | inactive |
| CG13390 | SID104203395 | 9.02 | 7.75 | 6560 | 6347 | inactive |
| CG7382 | SID104182844 | 7.93 | 7.69 | 5988 | 6124 | inactive |
| CG7382 | SID104206056 | 5.23 | 25.1 | 6519 | 6590 | inactive |
| CG7509 | SID104188388 | 7.97 | 8.49 | 6773 | 6728 | inactive |
| CG33998 | SID104185539 | 2.31 | 3.19 | 6411 | 6984 | inactive |
| CG5435 | SID104182652 | 1.7 | 1.25 | 5899 | 6085 | inactive |
| Ugt36E1 | SID104182391 | 12.6 | 4.03 | 6179 | 6257 | inactive |
| Cyp6d4 | SID104196425 | 4.07 | 1.97 | 6837 | 6433 | inactive |
| Cyp6d4 | SID104203157 | 5.96 | 1.9 | 6322 | 5693 | inactive |
| CG8916 | SID104199912 | 2.86 | 5.76 | 6149 | 5762 | inactive |
| CG3061 | SID104195252 | 5.92 | 21.4 | 6593 | 5579 | inactive |
| CG3061 | SID104204963 | 0.67 | 0.63 | 6570 | 6683 | active |
| Debcl | SID104184757 | 22.6 | 21.1 | 6132 | 6536 | inactive |
| Debcl | SID104208554 | 14 | 10.5 | 6646 | 6366 | inactive |
| PyK | SID104196598 | 1.64 | 4.02 | 6538 | 6836 | inactive |
| PyK | SID104205577 | 2.79 | 2.73 | 6602 | 6474 | inactive |

An excerpt from above, showing only “infection score, replicate 2”.
Debcl [SID104184757]: 21.1
Debcl [SID104208554]: 10.5
